Test results taken from article PMC6021681, “Characterization of the Anti-Hepatitis C Virus Activity of New Nonpeptidic Small-Molecule Cyclophilin Inhibitors with the Potential for Broad Anti-Flaviviridae Activity” (Antimicrobial Agents and Chemotherapy, 2018).

How the values were obtained:
Type in all cases: cell-based, hepatitis C virus
Conditions in all cases: EC50 relative to wild type
[1] = test system: genotype 1b HCV-SGR(L31V/Y93H)
Source text: . After linearization with ScaI and in vitro transcription, the genotype 1b HCV-SGR was transfected into Huh7.5 cells.

[2] = test system: genotype 1b HCV-SGR Y321H
Procedure: (§1) Candidate resistance-associated substitutions (RASs) were introduced into a wild-type genotype 1b HCV-SGR containing the luciferase reporter gene by means of site-directed mutagenesis (QuikChange II XL site-directed mutagenesis kit; Agilent Technologies, Santa Clara, CA, USA). […] The replication capacity of the RAS-containing HCV-SGR was assessed by comparing luciferase activities at 4 h and 96 h posttransfection and expressed as a percentage of the wild-type replication capacity.

[3] = test system: genotype 1b HCV-SGR D320E
Procedure: as §1

[4] = test system: genotype 1b HCV-SGR K308I
Procedure: as §1

[5] = test system: genotype 1b HCV-SGR I133V
Procedure: as §1

[6] = test system: genotype 1b HCV-SGR E442G
Procedure: as §1

[7] = test system: genotype 1b HCV-SGR L303P
Procedure: as §1

[8] = test system: genotype 1b HCV-SGR R304W
Procedure: as §1

C/C=C/C[C@@H](C)[C@@H](O)[C@H]1C(=O)N[C@@H](CC)C(=O)N(C)[C@H](C)C(=O)N(CC)[C@@H](C(C)C)C(=O)N[C@@H](C(C)C)C(=O)N(C)[C@@H](CC(C)C)C(=O)N[C@@H](C)C(=O)N[C@H](C)C(=O)N(C)[C@@H](CC(C)C)C(=O)N(C)[C@@H](CC(C)C)C(=O)N(C)[C@@H](C(C)C)C(=O)N1C [ALV, Alisporivir, reference compound]
Fold change, L31V/Y93H [1]: 0.5 | Fold change, Y321H [2]: 2.2 | Fold change, D320E [3]: 4.4 | Fold change, K308I [4]: 1.3 | Fold change, I133V [5]: 0.9 | Fold change, E442G [6]: 1.1 | Fold change, L303P [7]: 1.3 | Fold change, R304W [8]: 1.1
